Results of unrelated studies side by side (data: NIAID ChemDB).

All rows: tests on isolated targets; organism: HIV-1; protein: Reverse transcriptase; method: nucleotide incorporation; measure: Ki

An empty or dashed field is not shown. Lines come from different laboratories, so protocols vary.

{"smiles": "COc1ccc(/C=C/NC(=O)Nc2ccc(Cl)cn2)cc1OC", "changes": "RT-Y188L", "value": ">20 µM"}
{"smiles": "Nc1ccn([C@H]2CC[C@@H](COP(=O)(O)OP(=O)(O)OP(=O)(O)O)O2)c(=O)n1", "value": "0.29 µM"}
{"smiles": "O=c1[nH]c(=O)n([C@H]2C[C@H](O)[C@@H](COP(=O)(O)OP(=O)(O)OP(=O)(O)O)O2)cc1CCCl", "strain": "IIIB", "value": "1.2 µM"}
{"smiles": "O=c1[nH]c(=O)n([C@H]2C[C@H](F)[C@@H](COP(=O)(O)OP(=O)(O)OP(=O)(O)O)O2)cc1Cl", "strain": "HXB2", "value": "0.05 µM"}
{"smiles": "O=c1c2cccn2c2cccc(F)c2n1CCNC(=S)Nc1ccc(Br)cn1", "changes": "RT-V106A", "value": "0.015 µM"}
{"smiles": "Nc1ncnc2c1ncn2[C@H]1CC[C@@H](COP(=O)(O)OP(=O)(O)OP(=O)(O)O)O1", "value": "0.166 µM"}
{"smiles": "CCc1cn([C@H]2C[C@H](O)[C@@H](COP(=O)(O)OP(=O)(O)OP(=O)(O)O)O2)c(=O)[nH]c1=O", "strain": "IIIB", "value": "0.64 µM"}
{"smiles": "Nc1ccn([C@H]2CC[C@@H](COP(=O)(O)OP(=O)(O)OP(=O)(O)O)O2)c(=O)n1", "strain": "HXB2", "value": "5.1 µM"}
{"smiles": "O=[N+]([O-])c1ccc(CCNC(=S)Nc2ccc(Br)cn2)cc1", "value": "84 µM"}
{"smiles": "O=C(/C=C/c1ccc(O)c2c1[C@H](C(=O)O)[C@@H](c1ccc(O)c(O)c1)O2)O[C@H](Cc1ccc(O)c(O)c1)C(=O)O", "strain": "IIIB", "value": "0.8 µM"}
{"smiles": "COc1ccc(CCNC(=S)Nc2ccc(Br)cn2)cc1", "value": "1.2 µM"}
{"smiles": "O=c1c(O)c(-c2ccc(O)c(O)c2)oc2cc(O)c(O)c(O)c12", "value": "0.46 µM"}
{"smiles": "O=c1c2nccn2c2ccccc2n1CCNC(=S)Nc1ccc(Br)cn1", "changes": "RT-Y181I", "value": "1.45 µM"}
{"smiles": "C/C=C/c1cn([C@H]2C[C@H](O)[C@@H](COP(=O)(O)OP(=O)(O)OP(=O)(O)O)O2)c(=O)[nH]c1=O", "strain": "IIIB", "value": "0.76 µM"}
{"smiles": "O=c1c2cccn2c2cc(Cl)c(Cl)cc2n1CCNC(=S)Nc1ccc(Br)cn1", "changes": "RT-K103N", "value": "0.3 µM"}
{"smiles": "C[C@@H](NC(=S)Nc1ccccn1)C1CCCCC1", "strain": "IIIB", "value": "100 µM"}
{"smiles": "O=c1c2cccn2ccn1CCNC(=S)Nc1ccc(Br)cn1", "changes": "RT-K103N", "value": "0.017 µM"}
{"smiles": "Cc1cn([C@H]2C=C[C@@H](COP(=O)(O)OP(=O)(O)OP(=O)(O)O)O2)c(=O)[nH]c1=O", "strain": "HXB2D", "value": "0.03 µM"}

For reference, 2 entries again:

smiles | changes | strain | value
COc1ccc(/C=C/NC(=O)Nc2ccc(Cl)cn2)cc1OC | RT-Y188L |  | >20 µM
COc1ccc(CCNC(=S)Nc2ccc(Br)cn2)cc1 |  |  | 1.2 µM